The source of these data is US20230181697A1 (published 2023).

For the assay, the target named is T1, S1-protein variant of SARS-CoV-2 containing a single mutation (N501Y) (SARS-CoV-2, UniProt P0DTC2 16-685).
T1 construct: domain: S1 subunit; also called S1-protein with a single mutation N501Y
In words: ELISA, S1 N501Y immobilized, rhSP-D titrated (FIG. 4D). A general note: ELISA stands for enzyme-linked immunosorbent assay.

B1: full length recombinant human rhSP-D produced in human cell line GlycoExpress (GEX), variant Met11, (other)
chain: AEMKTYSHRTMPSACTLVMCSSVESGLPGRDGRDGREGPRGEKGDPGLPGAAGQAGMPGQAGPVGPKGDNGSVGEPGPKGDTGPSGPPGPPGVPGPAGREGPLGKQGNIGPQGKPGPKGEAGPKGEVGAPGMQGSAGARGLAGPKGERGVPGERGVPGNTGAAGSAGAMGPQGSPGARGPPGLKGDKGIPGDKGAKGESGLPDVASLRQQVEALQGQVQHLQAAFSQYKKVELFPNGQSVGEKIFKTAGFVKPFTEAQLLCTQAGGQLASPRSAAENAALQQLVVAKNEAAFLSMTDSKTEGKFTYPTGESLVYSNWAPGEPNDDGGSEDCVEIFTNGKWNDRACGEKRLVVCEF
On to B1, for which the binding result was “binds”.
